In series [1] the test system is Nc1ncnc2c1ncn2[C@@H]1O[C@H](COP(=O)(O)OP(=O)(O)OP(=O)(O)O)[C@@H](O)[C@H]1O. The series can be described thus: purified protein. Conditions: pH 7.5.
The subject of series [2] is O=P(O)(O)O[C@@H]1O[C@H](CO)[C@@H](O)[C@H](O)[C@H]1O. In words: purified protein. To be noted: pH 7.5.

Turning to “BpHldC (Burkholderia pseudomallei K96243)”, the K0.5 in series [1] worked out at 0.23 ± 0.02 mM; in series [2], 0.68 ± 0.07 mM.

Source of the values: PMC7993394 (Journal of Enzyme Inhibition and Medicinal Chemistry, 2021).
